PubChem BioAssay AID624099, ICCB-Longwood, 2012

Aim: 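Knock-downs relieving repression by E2 of an HPV18 LCR luciferase reporter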 (primary screen)
Cell system: human C33A cervical carcinoma cells (HPV-negative) stably expressing BPV1 E2 and an HPV18 LCR luciferase reporter
Reagents: siRNA pool against human genes, 40 nM
Duration: 72 h
Measured: 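Per-well luciferase luminescence, z-scored on each plate against the plate mean and SD with control wells left out, then averaged across three replicate plates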
Direction: mean z-score and z-score: higher = stronger reporter signal, weaker E2 silencing
Active means: 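Hit if mean z-score reaches 2 and two or more of three replicate z-scores also reach 2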
This is a random part of about 21,000 deposited reagents. 497 of all reagents (2.4%) were called active. 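Higher z means weaker E2 silencing; only reporter increases were scored, and knock-downs that hurt cell survival may mask genuine repressor factors.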 Entries without a mark were called inactive. Reagents against one gene are numbered here.

Target gene,reagent,mean z-score,"z-score, replicate A","z-score, replicate B","z-score, replicate C"
BRS3 (bombesin receptor subtype 3),1,1.2,1.03,1.26,1.32
BBS12 (Bardet-Biedl syndrome 12),1,-0.84,-0.74,-1.14,-0.65
SNX25 (sorting nexin 25),1,0.43,0.68,0.34,0.27
RAB11FIP1 (RAB11 family interacting protein 1),1,-0.06,-0.3,-0.07,0.19
REEP5 (receptor accessory protein 5),1,0.48,0.5,0.57,0.39
GARRE1 (granule associated Rac and RHOG effector 1),1,-0.72,-0.74,-0.88,-0.54
HNRNPA1P70 (heterogeneous nuclear ribonucleoprotein A1 pseudogene 70),1,-1.16,-1.33,-1.33,-0.82
LRRC66 (leucine rich repeat containing 66),1,-1.4,-1.16,-1.49,-1.55
SETBP1 (SET binding protein 1),1,0.82,0.76,1.08,0.61
DRC5 (dynein regulatory complex subunit 5),1,-0.31,-0.33,-0.36,-0.23
ADGRE3 (adhesion G protein-coupled receptor E3),1,-0.5,-0.46,-0.5,-0.53
GPANK1 (G-patch domain and ankyrin repeats 1),1,0.23,0.31,0.45,-0.07
STYX (serine/threonine/tyrosine interacting protein),1,1.06,1.11,0.76,1.32
ADH6 (alcohol dehydrogenase 6 (class V)),1,-0.28,-0.26,-0.16,-0.41
PNPLA4,1,-0.18,-0.13,-0.17,-0.25
TRDMT1 (tRNA aspartic acid methyltransferase 1),1,-0.56,-0.42,-0.53,-0.74
QTMAN (queuosine-tRNA mannosyltransferase),1,-1.03,-1.13,-0.98,-0.98
PRELID1P6 (PRELID1 pseudogene 6),1,1.07,0.84,1.25,1.11
YWHAE,1,0.44,-0.09,0.5,0.91
TBC1D7 (TBC1 domain family member 7),1,-0.39,-0.19,-0.48,-0.49
CALHM4 (calcium homeostasis modulator family member 4),1,0.3,0.38,0.45,0.06
CATSPERQ (catsper channel auxiliary subunit theta),1,-0.86,-0.89,-0.83,-0.87
TCEA3 (transcription elongation factor A3),1,-1.02,-0.91,-1.04,-1.11
CLEC3A (C-type lectin domain family 3 member A),1,-0.13,-0.16,-0.19,-0.05
APPL1,1,-0.22,0.07,-0.33,-0.39
IFNA2 (interferon alpha 2),1,-0.22,0.04,-0.28,-0.43
POT1-AS1 (POT1 antisense RNA 1),1,0.26,0.56,0.11,0.11
POT1-AS1 (POT1 antisense RNA 1),2,0.24,0.23,0.11,0.4
CD6 (CD6 molecule),1,0.15,0.4,-0.2,0.25
EYA1 (EYA transcriptional coactivator and phosphatase 1),1,1.16,1.04,1.33,1.13
LPAR6 (lysophosphatidic acid receptor 6),1,0.43,0.55,0.25,0.48
RANBP1 (RAN binding protein 1),1,1.14,1.22,1.15,1.07
LOC730118 (retired record),1,0.87,0.63,0.68,1.3
TSLIG2 (tRNA splicing ligase complex subunit 2),1,-0.65,-0.54,-0.77,-0.63
THY1 (Thy-1 cell surface antigen),1,0.76,0.7,0.76,0.82
THY1 (Thy-1 cell surface antigen),2,0.24,0.17,0.04,0.51
ATP4A (ATPase H+/K+ transporting subunit alpha),1,0.16,0.07,0.17,0.23
GBP6 (guanylate binding protein family member 6),1,-0.99,-1.29,-0.81,-0.86
NUDT8 (nudix hydrolase 8),1,-1.34,-0.97,-1.18,-1.86
